Results of unrelated studies side by side (data: NIAID ChemDB).

Common to all: whole-cell or culture tests; organism: Cytomegalovirus; cell line: MRC-5; read-out: EC50

Lines come from different laboratories, so protocols vary.

structure | strain or isolate | method | value
Nc1nc2c(ncn2COC(CO)CO)c(=O)[nH]1 | 192 | - | 6.3 µM
Cc1ccc(C(=O)Nc2ccc(S(=O)(=O)O)c3cc(S(=O)(=O)O)cc(S(=O)(=O)O)c23)cc1NC(=O)c1cccc(NC(=O)Nc2cccc(C(=O)Nc3cc(C(=O)Nc4ccc(S(=O)(=O)O)c5cc(S(=O)(=O)O)cc(S(=O)(=O)O)c45)ccc3C)c2)c1 | Isolate T-156 | plaque count | 18 µM
Nc1nc(Cl)c2ncn(OCCOCP(=O)(O)O)c2n1 | AD169 | plaque count | 0.62 µg/mL
CC(C)(C)[Si](C)(C)OC[C@H]1O[C@@H](n2ccc(=O)[nH]c2=O)[C@H](O[Si](C)(C)C(C)(C)C)C1(O)[C@H](N=[N+]=[N-])C(N)=O | - | plaque count | >5 µM
O=S(=O)(O)c1cc(NS(=O)(=O)c2ccc(-c3ccc(S(=O)(=O)Nc4cc(S(=O)(=O)O)c5cccc(S(=O)(=O)O)c5c4)cc3)cc2)cc2c(S(=O)(=O)O)cccc12 | Isolate T-1082 | plaque count | 40 µM
Nc1nc(N)c2ncn(OCC(CO)OCP(=O)(O)O)c2n1 | AD169 | plaque count | >300 µg/mL
COC(=O)[C@@H]1O[C@]12[C@@H](CO[Si](C)(C)C(C)(C)C)O[C@@H](n1ccc(=O)[nH]c1=O)[C@@H]2O[Si](C)(C)C(C)(C)C | - | plaque count | >20 µM
O=C(CCCCCCC(=O)Nc1cc(S(=O)(=O)O)cc2cc(S(=O)(=O)O)cc(O)c12)Nc1cc(S(=O)(=O)O)cc2cc(S(=O)(=O)O)cc(O)c12 | AD169 | plaque count | 12 µM
CC(C)(C)[Si](C)(C)OC[C@H]1O[C@@H](n2ccc(=O)[nH]c2=O)[C@H](O[Si](C)(C)C(C)(C)C)[C@@]12O[C@H]2C(=O)NN | - | plaque count | 23 µM
CCCCCCCCCCc1nccn(CCCCO)c1=O | - | cytopathic effect | >10 µM
COc1nc(N)nc2c1ncn2OCCOCP(=O)(O)O | AD169 | plaque count | <0.16 µg/mL
Nc1nc2c(ncn2CCC(CO)CO)c(=O)[nH]1 | AD169 | plaque count | 52 µg/mL
CCCCCCCCCCc1nccn(C(CO)OC(CO)CO)c1=O | - | cytopathic effect | 50 µM
O=c1[nH]cnc2c1ncn2OCCOCP(=O)(O)O | AD169 | plaque count | >340 µg/mL

2 of the rows above, restated:

structure	strain or isolate	method	value
CC(C)(C)[Si](C)(C)OC[C@H]1O[C@@H](n2ccc(=O)[nH]c2=O)[C@H](O[Si](C)(C)C(C)(C)C)[C@@]12O[C@H]2C(=O)NN	-	plaque count	23 µM
Nc1nc(Cl)c2ncn(OCCOCP(=O)(O)O)c2n1	AD169	plaque count	0.62 µg/mL

ECn is the concentration giving n% inhibition of infection, replication or growth. Blank or dashed fields: not listed here.